Values from PubChem BioAssay AID1259414 (Drosophila RNAi Screening Center, 2018).
The deposit covers about 24,000 reagents; this is a random part of those that have a named target and a result. In the full data, about 1,210 (5%) were called active. 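Inactive calls also include excluded dsRNAs with several or no targets, genes unexpressed in JW18, and well A1, regardless of score.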 Entries without a mark were called inactive.

Assay: 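Genome-wide screen for host control of endosymbiont load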 (primary screen)
Cells: Drosophila JW18 cells infected with Wolbachia
Reagents: long dsRNA against Drosophila genes, 0.25 µg dsRNA per well of a 384-well plate
Duration: 5 days
Conditions: cells persistently infected with Wolbachia before knock-down; no added drug
Measured: 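Automated imaging of bacterial rRNA staining divided by host cell count, reported as plate-normalised robust z-score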
Scale: Wolbachia per cell robust z: higher = more Wolbachia per host cell than the plate typical
Call rule: 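Hit when robust z is 1.5 or more, or -1.5 or less, in at least two of three replicates; excludes dsRNAs with several or no targets, genes not expressed in JW18 and well A1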

target | DRSC id | Wolbachia per cell robust z, rep 1 | Wolbachia per cell robust z, rep 2 | Wolbachia per cell robust z, rep 3
S-Lap2 | DRSC10628 | -0.869 | 0.661 | 0.49
Ptth | DRSC00356 | 0.47 | -5.02 | -0.781
C901 | DRSC19351 | 0.599 | -0.106 | 0.951
C901 | DRSC28397 | 1.07 | -0.0894 | 1.29
Mdr65 | DRSC11220 | 0.91 | 0.636 | 0.558
cwo | DRSC17072 | 0.686 | 0.168 | 1.47
cwo | DRSC25219 | 1.08 | 0.184 | 2.33
CG14329 | DRSC14808 | 0.965 | 0.973 | 1.38
Ir56a | DRSC05776 | 0.0408 | 0.517 | -0.707
Ir56a | DRSC28590 | 0.0863 | -1.36 | -0.293
dac | DRSC03518 | -7.48 (active) | -1.18 | -8.61
CG12420 | DRSC14514 | 0.301 | -0.0358 | -1.84
CG2278 | DRSC18226 | 0.0788 | 1.06 | 0.206
CG34236 | DRSC38647 | -2.23 | -1.43 | 0.122
Ts | DRSC00795 | 0.0142 | -0.249 | -0.525
Ts | DRSC22168 | 0.996 | 0.579 | 0.567
CG31157 | DRSC21832 | -0.285 | 0.461 | -0.68
CG31157 | DRSC29159 | 1.35 | 0.385 | -1.63
enc | DRSC08716 | 0.754 | 0.517 | -4.36
enc | DRSC27545 | 1.66 | -0.154 | -0.112
CG32751 | DRSC21770 | -0.105 | 0.556 | -0.498
Mpcp2 | DRSC11226 | -1.2 | 0.625 | -0.152
CG4017 | DRSC02733 | -1.5 | 0.924 | 0.39
beat-IIa | DRSC14813 | -0.275 | 0.102 | 0.665
beat-IIa | DRSC14814 | 1.19 | -2.22 | 0.387
CG4151 | DRSC18351 | 0.26 | 0.963 | 0.875
CG14154 | DRSC10156 | -0.174 | 0.998 | 1.55
bnk | DRSC16912 | 0.225 | -3.94 | -0.786
bnk | DRSC29887 | 0.481 | 0.319 | 0.785

A run of entries taken from the entries so far, as a working copy:
target | DRSC id | Wolbachia per cell robust z, rep 1 | Wolbachia per cell robust z, rep 2 | Wolbachia per cell robust z, rep 3
dac | DRSC03518 | -7.48 (active) | -1.18 | -8.61
CG12420 | DRSC14514 | 0.301 | -0.0358 | -1.84
